How the values were obtained:
HLA-A2.1 = HLA-A2.1 (Homo sapiens, UniProt P04439, D140Y/D185E/D98H/E176V/E277Q/G131W/G231S/I119V/I121R/I166T/I218V/L300P/L318F/N151K/N90K/P208A/P217A/Q86G/Q94H/R138H/R169H/T345S); format: binding
RT-specific CTL lines = assay: RANTES production by peptide-specific CTL lines (ELISA); format: cell-based, mouse; settings: HHD-2 mice (FIG. 4B)
immune spleen cells = assay: In vivo immunogenicity: antigen-specific IFN-γ production by bulk cultures from immunized HHD-2 mice; parameters: species or system HHD-2-transgenic mice; settings: HHD-2 mice immunized twice with 50 nmol peptide; supernatant after 48 hr (FIG. 5B)

Row | Sequence | FI0.5 (HLA-A2.1) | HLA-A2 binding compared among RT peptides (FIG. 1A) (HLA-A2.1) | also measured
1 | VIYQYMDDV [Peptide 9V] | 19.9 μsM | – | –
2 | YIYQYMDDL [RT-1Y] | – | higher affinity than RT-WT | –
3 | VIYQYMADL [Peptide 7A] | >100 μsM | – | –
4 | YLYQYMDDV | – | highest affinity of all the peptides | HLA-A2 binding ability compared with FMP (FIG. 1B) (HLA-A2.1): almost as good as that of FMP; crossreactivity of peptide-specific CTL for wild-type peptide (RANTES production) (RT-specific CTL lines): significantly weaker; antigen-specific IFN-γ production by peptide-immunized bulk culture (immune spleen cells): much higher IFN-γ production
5 | VAYQYMDDL [Peptide 2A] | >100 μsM | – | –

— patent US7731971B2, “Enhanced CTL epitope-containing HIV-1 reverse transcriptase polypeptides” (The United States of America as represented by the …, priority 2003, dated 2010)
